Pooled drug test results. Numbers come from NIAID ChemDB, via PubChem.

Common to all: tests in culture; agent: HIV-1; cells: CEM + CEM-SS; endpoint: EC50

Lines come from different laboratories, so protocols vary. ECn is the concentration giving n% inhibition of infection, replication or growth. An empty or dashed field is not shown.

compound	strain	changes	read by	result
CCCc1cc(=O)oc2c3c(c4c(c12)OC(C)(C)C=C4)O[C@@H](C)[C@H](C)[C@@H]3O	UC10-resistant (RT K103N)	RT-K103N	XTT	>270 µM
Cc1cn([C@H]2C[C@H](N=[N+]=[N-])[C@@H](CO)O2)c(=O)[nH]c1=O	IIIB	-	cytopathic effect / XTT	0.002 µM
CC(=O)O[C@@H]1CSSC[C@H]1OC(C)=O	RF	-	cytopathic effect / XTT	>200 µM
Cc1cn([C@H]2C[C@H](N=[N+]=[N-])[C@@H](CO)O2)c(=O)[nH]c1=O	NL4-3	RT-V179D	XTT	0.003 µM
CCCCCCCCCCCCC(Br)C(=O)OC[C@H]1O[C@@H](n2cc(C)c(=O)[nH]c2=O)C[C@@H]1N=[N+]=[N-]	IIIB	-	-	0.1275 µM
C=C1C=C(OC)C(C)(C2=NC(C)(C)CO2)c2ccccc21	RF	-	cytopathic effect / XTT	140 µM
Cc1cn([C@H]2C[C@H](N=[N+]=[N-])[C@@H](CO)O2)c(=O)[nH]c1=O	-	-	cytopathic effect / XTT	0.003 µM
Cc1ccnc2c1NC(=O)c1cccnc1N2C1CC1	Oxathiin carboxanilide-resistant RT L100I	RT-L100I	XTT	0.1 µM
Cc1cn([C@H]2C[C@H](N=[N+]=[N-])[C@@H](COC(=O)CCCCCCCCCCCCl)O2)c(=O)[nH]c1=O	IIIB	-	-	0.185 µM
CCCc1cc(=O)oc2c3c(c4c(c12)OC(C)(C)C=C4)O[C@H](C)[C@@H](C)[C@@H]3O	NL4-3 1 (RT K101E)	RT-K101E	XTT	1.7 µM
CCOP(=O)(/C=C/n1cc(F)c(=O)[nH]c1=O)OCC	IIIB	-	-	>200 µM
CC(C)=CCN1Cc2cccc3[nH]c(=S)n(c23)C[C@@H]1C	Calanolide A-resistant (RT T139I)	RT-T139I	XTT	0.4 µM
CNc1ccc(Cl)cc1S(=O)(=O)c1ccccc1[N+](=O)[O-]	SK1	-	XTT	0.4 µM
Cc1cn([C@H]2C[C@H](N=[N+]=[N-])[C@@H](COP(=O)(OCCCCSC(=O)C(C)(C)C)OCCCCSC(=O)C(C)(C)C)O2)c(=O)[nH]c1=O	LAI	-	RT activity	1 µM
O=c1[nH]c(=O)n(/C=C/P(=O)(O)O)cc1I	IIIB	-	-	>200 µM
Cc1c(O)cccc1C(=O)N[C@@H](CSc1ccccc1)[C@H](O)CN1C[C@H]2CCCC[C@H]2C[C@H]1C(=O)NC(C)(C)C	LAI	-	cytopathic effect / MTT	0.002 µM
Fc1cccc(F)c1C1SCc2nc3ccccc3n21	McK	-	cytopathic effect / XTT	0.66 µM
Nc1ccn([C@H]2CC[C@@H](CO)O2)c(=O)n1	RF	-	cytopathic effect / MTT	0.018 µM
O[C@@H]1CSSC[C@@H]1O	RF	-	cytopathic effect / XTT	>20.1 µM
CCOP(=O)(/C=C\n1ccc(=O)[nH]c1=O)OCC	IIIB	-	-	>200 µM
COC(=O)CCCCCNC(=O)/C=C/c1cn([C@H]2C=C[C@@H](CO)O2)c(=O)[nH]c1=O	LAI	-	RT activity	>100 µM
CC1(C)CCC[C@]2(C)[C@@H](c3ccoc3)C(=O)[C@@H]3O[C@]312	IIIB	-	syncytia	15.4 µM
O=C(/C=C/c1cn([C@H]2C=C[C@@H](CO)O2)c(=O)[nH]c1=O)NCCCCCCNC(=O)C(F)(F)F	LAI	-	RT activity	560 µM
CCOP(=O)(/C=C\n1cc(F)c(=O)[nH]c1=O)OCC	IIIB	-	-	>200 µM
CN(C)C=Nc1ccn([C@H]2CC[C@@H](CO)O2)c(=O)n1	RF	-	cytopathic effect / XTT	1 µg/mL
O=S(=O)(c1ccccc1)c1ccccc1	NSC667952-RS	-	XTT	93.3 µM
Fc1cccc(F)c1C1SCc2nc3ccccc3n21	IIIB	-	cytopathic effect / XTT	0.98 µM
Cc1cn(/C=C/P(=O)(O)O)c(=O)[nH]c1=O	IIIB	-	-	>200 µM
Nc1ncnc2c1ncn2[C@H]1CC[C@@H](CO)O1	LAI	-	RT activity	1.5 µM
CC(C)(C)NC(=O)[C@@H]1CN(Cc2cccnc2)CCN1C[C@H](C[C@@H](Cc1ccccc1)C(=O)N[C@H]1c2ccccc2C[C@H]1O)OC(=O)CCC(=O)O[C@H]1[C@@H](C2COC(C)(C)O2)OC2OC(C)(C)O[C@H]21	LAI	-	cytopathic effect / MTT	0.12 µM
Cc1cn([C@H]2C[C@H](N=[N+]=[N-])[C@@H](COC(=O)CCOCCCCCCCCCl)O2)c(=O)[nH]c1=O	IIIB	-	-	0.082 µM
CC(C)(C)NC(=O)[C@@H]1CN(Cc2cccnc2)CCN1C[C@@H](O)C[C@@H](Cc1ccccc1)C(=O)N[C@H]1c2ccccc2C[C@H]1OC(=O)CCCCO[C@@H]1[C@@H](O)[C@@H](O)O[C@H](CO)[C@H]1O	LAI	-	cytopathic effect / MTT	0.048 µM
O=c1[nH]c(=O)n(/C=C/P(=O)(O)O)cc1Br	IIIB	-	-	>200 µM
COC1=CC(=O)c2ccccc2C1(C)C1=NC(C)(C)CO1	RF	-	cytopathic effect / XTT	>320 µM
CC(C)(C)C(=O)SCCOP(=O)(OCCSC(=O)C(C)(C)C)OC[C@@H]1CC[C@H](n2cnc3c(N)ncnc32)O1	LAI	-	RT activity	0.0002 µM
COc1cc2c(cc1C)C(C)=CC(=O)C2(C)C1=NC(C)(C)CO1	RF	-	cytopathic effect / XTT	20 µM
CCc1c(C(=O)c2cc(C)cc(C)c2)n(CC2CC=CC2)c(=O)[nH]c1=O	RF	-	cytopathic effect / XTT	0.001 µM
Cc1cn([C@H]2C[C@H](N=[N+]=[N-])[C@@H](CO)O2)c(=O)[nH]c1=O	RF	-	cytopathic effect / XTT	0.02 µM
Nc1ncnc2c1ncn2/C=C/P(=O)(O)O	IIIB	-	-	>200 µM
CC(=O)OCC1(COC(C)=O)CSS(=O)C1	RF	-	cytopathic effect / XTT	>14.3 µM
Nc1ccn([C@H]2CC[C@@H](CO)O2)c(=O)n1	IIIB	-	cytopathic effect / XTT	0.042 µM
Cc1cn([C@H]2C[C@H](N=[N+]=[N-])[C@@H](COC(=O)CCCCCCCCCCOc3ccc(I)cc3)O2)c(=O)[nH]c1=O	IIIB	-	-	0.131 µM
O=c1[nH]c(=O)n(/C=C/P(=O)(O)O)cc1CO	IIIB	-	-	>200 µM
Nc1ccn([C@H]2CC[C@@H](CO)O2)c(=O)n1	IIIB	-	cytopathic effect	0.0693 µM
CCOP(=O)(/C=C/n1cc(I)c(=O)[nH]c1=O)OCC	IIIB	-	-	>200 µM
Cc1cn([C@H]2C[C@H](N=[N+]=[N-])[C@@H](COC(=O)CCCCCCCCCCBr)O2)c(=O)[nH]c1=O	IIIB	-	-	0.0073 µM
CCCc1cc(=O)oc2c3c(c4c(c12)OC(C)(C)C=C4)OC(C)C(C)C3O	IIIB	-	cytopathic effect / XTT	0.062 µM
CC(C)(C)NC(=O)[C@@H]1C[C@@H]2CCCC[C@@H]2CN1C[C@@H](OC(=O)CCCCO[C@@H]1[C@@H](O)[C@@H](O)O[C@H](CO)[C@H]1O)[C@H](Cc1ccccc1)NC(=O)[C@H](CC(N)=O)NC(=O)c1ccc2ccccc2n1	LAI	-	cytopathic effect / MTT	<0.011 µM

For reference, 6 entries again:

| compound | strain | changes | read by | result |
|---|---|---|---|---|
| Cc1cn([C@H]2C[C@H](N=[N+]=[N-])[C@@H](COC(=O)CCCCCCCCCCBr)O2)c(=O)[nH]c1=O | IIIB | - | - | 0.0073 µM |
| CCOP(=O)(/C=C/n1cc(I)c(=O)[nH]c1=O)OCC | IIIB | - | - | >200 µM |
| CCc1c(C(=O)c2cc(C)cc(C)c2)n(CC2CC=CC2)c(=O)[nH]c1=O | RF | - | cytopathic effect / XTT | 0.001 µM |
| O[C@@H]1CSSC[C@@H]1O | RF | - | cytopathic effect / XTT | >20.1 µM |
| CC(C)(C)C(=O)SCCOP(=O)(OCCSC(=O)C(C)(C)C)OC[C@@H]1CC[C@H](n2cnc3c(N)ncnc32)O1 | LAI | - | RT activity | 0.0002 µM |
| Cc1cn([C@H]2C[C@H](N=[N+]=[N-])[C@@H](CO)O2)c(=O)[nH]c1=O | IIIB | - | cytopathic effect / XTT | 0.002 µM |